Experimental data from the supplement of paper PMC3578754.
Fold change is the IC50 on the isolate divided by the IC50 on a reference virus; 1 = unchanged, higher = more resistant. Changes are given against the subtype B consensus. No active / inactive call. The values were gathered from many studies (numbered anew) with different assays, which the source does not name. Most viruses are clinical isolates; some are laboratory strains or clones with known resistance changes. Isolates with mixed residues are left out; stretches that were not sequenced show no change. Round top values that many isolates share are read here as limits; other very high values and 0.1 may be limits too. The protease changes I3V and N37S, insertions and deletions cannot be read from the source.

Experiments:
Assay in all cases: fold change of IC50 against reference virus; higher = more resistant; Cell-culture drug susceptibility tests of virus bearing the protease of each isolate, gathered from many studies.
ritonavir = compound: CC(C)c1nc(CN(C)C(=O)N[C@H](C(=O)N[C@@H](Cc2ccccc2)C[C@H](O)[C@H](Cc2ccccc2)NC(=O)OCc2cncs2)C(C)C)cs1 [ritonavir]
indinavir = compound: CC(C)(C)NC(=O)[C@@H]1CN(Cc2cccnc2)CCN1C[C@@H](O)C[C@@H](Cc1ccccc1)C(=O)N[C@H]1c2ccccc2C[C@H]1O [indinavir]
saquinavir = compound: CC(C)(C)NC(=O)[C@@H]1C[C@@H]2CCCC[C@@H]2CN1C[C@@H](O)[C@H](Cc1ccccc1)NC(=O)[C@H](CC(N)=O)NC(=O)c1ccc2ccccc2n1 [saquinavir]
nelfinavir = compound: Cc1c(O)cccc1C(=O)N[C@@H](CSc1ccccc1)[C@H](O)CN1C[C@H]2CCCC[C@H]2C[C@H]1C(=O)NC(C)(C)C [nelfinavir]

Test System	fold change of IC50 against reference virus (ritonavir)	fold change of IC50 against reference virus (indinavir)	fold change of IC50 against reference virus (saquinavir)	fold change of IC50 against reference virus (nelfinavir)
HIV-1 isolate 675 (protease changes: K20R L33F M36I I54V V82S, study 38)	17	4	1	
HIV-1 isolate 1639 (protease changes: V32I E35D N37D M46I I47V L63P G73S V77I L90M I93L, study 130)	4	4	4	
HIV-1 isolate 1404 (protease changes: L10R M46I, study 91)	1	1	1	
HIV-1 isolate 320 (protease changes: R41K I54V I62V L63P V77I V82A, study 130)	8	30	4	
HIV-1 isolate 617 (protease changes: L10I L24I M46L I54V L63P A71V V82A, study 130)	8	30	1	
HIV-1 isolate 411 (protease changes: L10I K20M L24I E35D M36I R41K I54V L63P A71T V82A, study 130)	8	15	8	
HIV-1 isolate 512 (protease changes: R57G, study 5)	1			
HIV-1 isolate 730 (protease changes: L10R M46I L63P, study 91)	1	0.5	1	
HIV-1 isolate 1467 (protease changes: R57G A71V, study 5)	1			
HIV-1 isolate 442 (protease changes: L10I T12S I13V L33I M36I M46I I64V V82F I84V L89M, study 130)	8	30	2	
HIV-1 isolate 98 (protease changes: L10H L24I E35D N37D M46I L63P V82A Q92K, study 130)	8	8	4	
HIV-1 isolate 387 (protease changes: Q18L A71V V77I I84V L90M, study 57)	4	3	16	
HIV-1 isolate 1214 (protease changes: L10I K20M E35D M36I R41K I54V L63P A71T V82A, study 130)	8	8	2	
HIV-1 isolate 1533 (protease changes: L10R T12A M46I R57K L63P I64V V82T I84V, study 130)	4	4	1	
HIV-1 isolate 1458 (protease changes: V82T, study 91)	1.8	1	1	
HIV-1 isolate 78 (protease changes: L63P V82T I84V, study 91)	3.7	2	2	
HIV-1 isolate 1065 (protease changes: M46I R57G, study 5)	1			
HIV-1 isolate 180 (protease changes: I84V, study 91)	1	0.5	2	

Test System	fold change of IC50 against reference virus (ritonavir)	fold change of IC50 against reference virus (indinavir)	fold change of IC50 against reference virus (saquinavir)	fold change of IC50 against reference virus (nelfinavir)
HIV-1 isolate 944 (protease changes: R57G V82F, study 5)	5	3	2	
HIV-1 isolate 1566 (protease changes: M46I R57G I84V, study 5)	7			
HIV-1 isolate 261 (protease changes: L10R M46I V82T, study 91)	1.8	2	1	
HIV-1 isolate 1206 (protease changes: L10I K14R E35D M36V N37D I54V L63P I64V A71T V82F L90M I93L, study 130)	10	30	4	
HIV-1 isolate 155 (protease changes: L10R K20I L24I M46I I54V R57K L63P A71V G73S V82T, study 130)	8	30	8	
HIV-1 isolate 425 (protease changes: L10R M46I L63P V82T, study 91)	3.7	4	1	
HIV-1 isolate 256 (protease changes: M46I R57G I84C, study 5)	6			
HIV-1 isolate 917 (protease changes: M46I V82T I84V, study 91)	3.7	1	2	
HIV-1 isolate 420 (protease changes: E35D N37D I54V L63P V82A, study 130)	8	4	1	
HIV-1 isolate 1521 (protease changes: T12P L24I M46I I54V L63A V82A, study 82)		4.5	0.7	6.4
HIV-1 isolate 1515 (protease changes: L10I I15V M36I G48V I54V I62V, study 137)		5	30	9
HIV-1 isolate 822 (protease changes: L10I L63P A71T I72E V77I I93L, study 137)		1	2	3
HIV-1 isolate 429 (protease changes: L10I K20I M36I I54V L63P A71V V82T, study 82)		25.2	4.8	23
HIV-1 isolate 664 (protease changes: L10I L24I M46L I54V L63P A71V V82A, study 82)		34.5	7.2	49.8
HIV-1 isolate 205 (protease changes: M46I, study 91)	1		1	
HIV-1 isolate 926 (protease changes: L10I I15V M36I G48V I54V I62V V82A, study 137)		6	40	30
HIV-1 isolate 1512 (protease changes: R57G L63P, study 5)	1			
HIV-1 isolate 435 (protease changes: T12S R41K L63P I72V V77I L90M I93L, study 137)		4	7	13
